Test results as given in patent publication US6703367B1, “Methods for treating hot flashes and gynaecomastia” (Praecis Pharmaceuticals Inc., priority 2001, dated 2004).

System: patients with stage D1 or D2 metastatic prostate cancer or a rising PSA level after local therapy
Test: Questionnaire on frequency, severity and duration of hot flashes, 4 weeks of treatment (Example 4)
Assay type: in vivo, human
Settings: number of hot flashes/week 0

Q: For “Ac-D-Nal^1, 4-Cl-D-Phe^2, D-Pal^3, N-Me-Tyr^5, D-Asn^6, Lys(iPr)^8, D-Ala^10-LHRH [PPI-149]”, which “Occurrence of Hot Flashes: patients with 0 hot flashes/week” value is on record?
A: Its value is 61%.
